Pooled drug test results. Numbers come from NIAID ChemDB, via PubChem.

Inhibition is in % at the dose shown (toxicity tests: loss of growth or viability).

SMILES | cells | kind | measure | strain | mutations | species | dose | method | protein | result
COc1cc(C[C@H](C)[C@H](C)Cc2ccc(O)c(O)c2)ccc1O |  | culture | MIC100 | CCC 127-2000 |  | Candida albicans |  | broth dilution |  | 62.5 µg/mL
Cc1ccc(C(=O)Nc2nnc(NCCc3ccc(S(N)(=O)=O)cc3)s2)cc1 |  | target | IC50 |  |  | Human cytomegalovirus |  |  | Polymerase | >25 µM
CC1=CC(=O)c2c(O)cccc2C1=O | RK-13 | culture | inhibition |  |  | Encephalitozoon intestinalis | 1 µg/mL |  |  | 64.9%
Cc1cn([C@@H]2O[C@H](CO[Si](C)(C)C(C)(C)C)C3(OS(=O)(=O)C=C3N)[C@H]2O[Si](C)(C)C(C)(C)C)c(=O)n(C)c1=O |  | target | fold resistance |  | RT-P140A | HIV |  | nucleotide incorporation / radiometric | Reverse transcriptase | 0.38
C#CC[C@@H](C(=O)N[C@H](/C=C/C(=O)OCC)C[C@@H]1CCNC1=O)n1cccc(NC(=O)c2cc(C)on2)c1=O | H1-HELA | culture | inhibition | Serotype 10 |  | Rhinovirus | 0.089 µM | cytopathic effect / XTT |  | 90%
O=C(Nc1nnc(NCc2ccc(Cl)c(Cl)c2)s1)c1c(Cl)cccc1Cl |  | target | IC50 |  |  | Human cytomegalovirus |  |  | Polymerase | <25 µM
CCOC(=O)Nc1cc2c(c(N)n1)N=C(c1ccc(N=[N+]=[N-])cc1)CO2 | RK-13 | culture | inhibition |  |  | Encephalitozoon intestinalis | 0.1 µg/mL |  |  | 70.8%
Nc1nc2c(ncn2[C@H]2CC[C@@H](COP(=O)(O)OP(=O)(O)OP(=O)(O)O)O2)c(=O)[nH]1 |  | target | fold resistance |  | RT-P140A | HIV |  | nucleotide incorporation / radiometric | Reverse transcriptase | 26
Cc1ncc([N+](=O)[O-])n1CCO | RK-13 | culture | inhibition |  |  | Encephalitozoon intestinalis | 0.01 µg/mL |  |  | 13.4%
O=C(Nc1nnc(NCc2cccs2)s1)c1ccc(I)cc1 |  | target | IC50 |  |  | Human cytomegalovirus |  |  | Polymerase | >25 µM
Cc1cn([C@H]2C=C[C@@H](COP(=O)(O)OP(=O)(O)OP(=O)(O)O)O2)c(=O)[nH]c1=O |  | target | IC50 |  | RT-N137K | HIV |  | nucleotide incorporation / radiometric | Reverse transcriptase | 3.3 µM
CCO/N=C/c1ccc(OCCC2CCN(c3ccc(C)nn3)CC2)cc1 | KB | culture | EC50 | 204-CV14 (ICAM-1 receptor group 10) |  | Rhinovirus |  | neutral red |  | 0.082 µM
O=C(Nc1nnc(NCc2cccc3ccccc23)s1)c1cc2ccccc2s1 |  | target | IC50 |  |  | Human cytomegalovirus |  |  | Polymerase | >25 µM
O=C(NC(=O)c1c(F)cccc1F)Nc1cc(Cl)c(OC(F)(F)C(F)C(F)(F)F)cc1Cl | RK-13 | culture | inhibition |  |  | Encephalitozoon intestinalis | 5 µg/mL |  |  | 54.1%
O=C(/C=C/c1ccccc1Cl)Nc1nnc(NC2CCC2)s1 |  | target | IC50 |  |  | Human cytomegalovirus |  |  | Polymerase | >25 µM
CCCSc1ccc2nc(NC(=O)OC)[nH]c2c1 | RK-13 | culture | inhibition |  |  | Vittaforma corneae | 0.1 µg/mL |  |  | 86.7%

2 of the rows above, restated:

SMILES,cells,kind,measure,strain,mutations,species,dose,method,protein,result
Cc1cn([C@H]2C=C[C@@H](COP(=O)(O)OP(=O)(O)OP(=O)(O)O)O2)c(=O)[nH]c1=O,,target,IC50,,RT-N137K,HIV,,nucleotide incorporation / radiometric,Reverse transcriptase,3.3 µM
Cc1cn([C@@H]2O[C@H](CO[Si](C)(C)C(C)(C)C)C3(OS(=O)(=O)C=C3N)[C@H]2O[Si](C)(C)C(C)(C)C)c(=O)n(C)c1=O,,target,fold resistance,,RT-P140A,HIV,,nucleotide incorporation / radiometric,Reverse transcriptase,0.38

Fold resistance has wild type as its base. Blank or dashed fields: not listed here. MIC50, MIC90 and the like: level of inhibition, or share of isolates inhibited. Conditions beyond the fields shown may differ between rows. ECn is the concentration giving n% inhibition of infection, replication or growth. ICn is the concentration giving n% inhibition.